Compound potency records, mixed from different reports. Data source: NIAID ChemDB in PubChem.

All rows: whole-cell or culture tests; agent: HIV-1; cells: CEM; read-out: EC50

Lines come from different laboratories, so protocols vary.

SMILES	strain or isolate	changes	read by	conditions	value
CCOCn1c(Cc2cc(C)cc(C)c2)c(CC)c(=O)[nH]c1=O	IIIB	RT-Y181I	syncytia	-	0.35 µM
NC1=NS(=O)(=O)N(Cc2ccccc2)c2nc[nH]c21	IIIB	-	syncytia	-	30 µg/mL
CCNC(=O)NC(=O)C(C)OC(=O)c1c2c(nc3ccccc13)/C(=C\c1cccc([N+](=O)[O-])c1)CCC2	-	-	luciferase	pseudotyped	4 µM
C[C@H](NP(=O)(OC[C@@H]1CCC(n2ccc(=O)[nH]c2=O)O1)Oc1ccccc1)C(=O)OCc1ccccc1	-	-	syncytia	-	40.8 µM
C=C(C)CN(C[C@@H](O)[C@H](Cc1ccccc1)NC(=O)O[C@@H]1CCOC1)S(=O)(=O)c1ccc(F)cc1	IIIB	-	p24	-	<10 µM
CCOCn1c(Sc2ccccc2)c(CC)c(=O)[nH]c1=O	IIIB	RT-Y181C	syncytia	-	0.65 µM
CCCc1c(Cc2cccc3ccccc23)n(COC)c(=O)[nH]c1=O	LAV	-	-	-	>59.1 µM
CN1CCN(C(=O)c2ccc3c(=O)c4ccccc4[nH]c3c2)CC1	Nevirapine-resistant (RT V106A)	RT-V106A	syncytia	-	0.65 µg/mL
C=CCOC(=O)N[C@@H](Cc1ccccc1)[C@H](O)CN(CC1CCCC1)S(=O)(=O)c1ccc2c(c1)CCN2C(C)=O	IIIB	-	p24	-	<1 µM
COC(=O)Oc1ccc(NC(=O)C2=C(C)OCCS2)cc1C(=O)OC(C)C	TSAO-resistant (RT E138K)	RT-E138K	syncytia	-	>10 µg/mL
NC1=NS(=O)(=O)N(Cc2ccccc2)c2nc(-c3ccc(Cl)cc3)[nH]c21	IIIB	-	syncytia	-	>4 µg/mL
Cc1cn(CC2(CO)CC2CO)c(=O)[nH]c1=O	RF	-	cytopathic effect / MTT	-	3.2 µg/mL
Cc1cc(S(=O)(=O)Nc2nnc3c4ccccc4cnn23)c(S)cc1Cl	Diphenyl sulfone-resistant	-	p24	-	10.6 µM
CC(C)OC(=O)[C@H](C)NP(=O)(OC[C@@H]1C=CC(n2ccc(=O)[nH]c2=O)O1)Oc1ccccc1	-	-	syncytia	-	>250 µM
CCOCn1c(Cc2ccc3ccccc3c2)c(CC)c(=O)[nH]c1=O	LAV	-	-	-	5.116 µM
CCOC(=O)[C@H](C)NP(=O)(OC[C@@H]1C=CC(n2ccc(=O)[nH]c2=O)O1)Oc1cccc2ccccc12	-	-	syncytia	-	>50 µM
CCCOC(=O)c1ccc(C)c(NC(=O)C2=C(C)OCCS2)c1	IIIB	-	syncytia	-	1 µg/mL
CCCc1c(Cc2cccc3ccccc23)n(COCC)c(=O)[nH]c1=O	LAV	-	-	-	0.275 µM
Nc1ccn([C@H]2CC[C@@H](CO)O2)c(=O)n1	RF	-	cytopathic effect / MTT	-	0.02 µg/mL
CCCC1=C(C(=O)Nc2ccc(Cl)c(C(=O)OC)c2)SCCO1	IIIB	-	syncytia	-	0.75 µg/mL
CC(=O)Nc1ccc(S(=O)(=O)N(CC(C)C)C[C@@H](O)[C@H](Cc2ccccc2)NC(=O)OC(C)C)cc1	IIIB	-	p24	-	<10 µM
CCOCn1c(Sc2cc(C)cc(C)c2)c(CC)c(=O)[nH]c1=S	IIIB (TIBO 82150) (RT-L100I)	RT-L100I	syncytia	-	0.01 µM
CN[C@@H]1[C@H](O[C@@H]2OC[C@@H](O)[C@H](O)[C@H]2O)[C@@H](O)[C@H](O[C@H]2c3cc(C)c(C(=O)N[C@H](C)C(=O)O)c(O)c3-c3c(cc4c(c3O)C(=O)c3cc(OC)cc(O)c3C4=O)[C@@H]2O)O[C@@H]1C	IIIB	-	p24 / ELISA	-	3.3 µM
Cc1cc(Cl)cc(S)c1S(=O)(=O)Nc1nnc2c3ccccc3cnn12	RF	-	cytopathic effect / XTT	-	12.6 µM
CCCCCCCCCC[N+](C)(C)CCCNCc1c(O)cc2c(c1O)-c1cc(ccc1O)[C@H]1NC(=O)[C@@H]3NC(=O)C4NC(=O)[C@@H](Cc5ccc(c(Cl)c5)Oc5cc3cc(c5O)Oc3ccc(cc3Cl)[C@@H](O)[C@H](NC1=O)C(=O)N[C@@H]2C(=O)O)NC(=O)[C@H](N)c1ccc(O)c(c1)Oc1cc(O)cc4c1	-	RT-Y181C	syncytia	-	8.5 µM
CC1=C(C(=O)Nc2cc(C(=O)OC(C)C)c(C)cc2F)SCCO1	TIBO-resistant (RT L100I)	RT-L100I	syncytia	-	>10 µg/mL
CCOCn1c(Sc2ccccc2)c(CC)c(=O)[nH]c1=S	IIIB (TIBO 82150) (RT-L100I)	RT-L100I	syncytia	-	0.06 µM
C=CCOC(=O)N[C@@H](Cc1ccccc1)[C@H](O)CN(CC1CCCC1)S(=O)(=O)c1ccc(OC)cc1	IIIB	-	p24	-	<1 µM
CCc1c(Sc2cc(C)cc(C)c2)n(COCc2ccccc2)c(=S)[nH]c1=O	IIIB TIBO R82913-resistant (RT K103N)	RT-K103N	syncytia	-	0.11 µM
COC(=O)[C@H](C)NP(=O)(OC[C@@H]1C=CC(n2ccc(=O)[nH]c2=O)O1)Oc1cccc2ccccc12	-	-	syncytia	-	>10 µM
Cc1cc(C)cc(Sc2c(C(C)C)c(=O)[nH]c(=S)n2COCCO)c1	IIIB	RT-Y181C	syncytia	-	0.34 µM
CCCc1c(Cc2ccc3ccccc3c2)n(COCc2ccccc2)c(=O)[nH]c1=O	LAV	-	-	-	>9.657 µM
CCC1=C(C(=O)Nc2ccc(Cl)c(C(=O)OCC(C)C)c2)SCCO1	IIIB	-	syncytia	-	0.05 µg/mL
CC(C)c1c(Sc2ccccc2)n(COCCO)c(=O)[nH]c1=O	IIIB (TIBO 82150) (RT-L100I)	RT-L100I	syncytia	-	0.28 µM
CC(=O)Nc1cc(S(=O)(=O)N(CC(C)C)C[C@@H](O)[C@H](Cc2ccccc2)NC(=O)[C@H](CC(N)=O)NC(=O)c2ccc3ccccc3n2)ccc1F	IIIB	-	p24	-	<1 µM
COc1ccc2ccc3c(c2c1)OC1(CCN(Cc2ccc(C#N)cc2)CC1)NC3=O	-	-	ELISA	-	0.031 µM
CC(C)CNC(=O)NC(=O)C(C)OC(=O)c1c2c(nc3ccccc13)/C(=C\c1cccc([N+](=O)[O-])c1)CCC2	-	-	luciferase	pseudotyped	>10 µM
CC1=C(C(=O)Nc2cc(C(=O)OC(C)C)c(F)cc2F)SCCO1	TSAO-resistant (RT E138K)	RT-E138K	syncytia	-	>10 µg/mL
NC(=O)C[C@H](NC(=O)c1ccc2ccccc2n1)C(=O)N[C@@H](Cc1ccccc1)[C@H](O)CN(Cc1ccccc1)S(=O)(=O)c1cccc(S(N)(=O)=O)c1	IIIB	-	p24	-	<1 µM

For reference, 5 entries again:

Cc1cc(S(=O)(=O)Nc2nnc3c4ccccc4cnn23)c(S)cc1Cl ; strain or isolate: Diphenyl sulfone-resistant ; read by: p24 ; value: 10.6 µM
Cc1cn(CC2(CO)CC2CO)c(=O)[nH]c1=O ; strain or isolate: RF ; read by: cytopathic effect / MTT ; value: 3.2 µg/mL
CCCc1c(Cc2cccc3ccccc23)n(COC)c(=O)[nH]c1=O ; strain or isolate: LAV ; value: >59.1 µM
NC(=O)C[C@H](NC(=O)c1ccc2ccccc2n1)C(=O)N[C@@H](Cc1ccccc1)[C@H](O)CN(Cc1ccccc1)S(=O)(=O)c1cccc(S(N)(=O)=O)c1 ; strain or isolate: IIIB ; read by: p24 ; value: <1 µM
CCOCn1c(Sc2cc(C)cc(C)c2)c(CC)c(=O)[nH]c1=S ; strain or isolate: IIIB (TIBO 82150) (RT-L100I) ; changes: RT-L100I ; read by: syncytia ; value: 0.01 µM

ECn: concentration that inhibits the pathogen or its effect by n%. An empty or dashed field is not shown.